From patent US7960387B2, “2-(3-phenyl-2-piperazinyl-3,4-dihydroquinazolin-4-yl)acetic acids as antiviral agents, especially against cytomegaloviruses” (Bayer Schering Pharma Aktiengesellschaft, priority 2003, dated 2011)
Where a name gives a salt, the structure may show the parent alone.

Test system: HCMV
Assay: Anti-HCMV cytopathogenicity test
Assay type: cell-based, human cytomegalovirus
Settings: selectivity index = CC50 (NHDF)/EC50 (HCMV)
Experimental: Anti-HCMV (Anti-Human Cytomegalovirus) Cytopathogenicity Tests The test compounds are employed as 50 millimolar (mM) solutions in dimethyl sulphoxide (DMSO). Ganciclovir®, Foscarnet® and Cidofovir® are used as reference compounds. After addition of in each case 2 μl of the 50, 5, 0.5 and 0.05 mM DMSO stock solutions to 98 μl portions of cell culture medium in row […] for duplicate determinations, 1:2 dilutions are carried out with 50 μl portions of medium up to row 11 of the 96-well plate. The wells in rows 1 and 12 each contain 50 μl of medium. In 150 μl of a suspension of 1×10^4 cells (human prepuce fibroblasts [NHDF]) are pipetted into each of the wells (row 1=cell control) and, in rows 2-12, a mixture of HCMV-infected and uninfected NHDF cells (M.O.I.=0.001-0.002), i.e. 1-2 infected cells per 1000 uninfected cells. Row 12 (without substance) serves as virus control. The final test concentrations are 250-0.0005 μM. The plates are incubated at 37° C./5% CO2 for 6 days, i.e. until all the cells are infected in the virus controls (100% cytopathogenic effect [CPE]). The wells are then fixed and stained by adding a mixture of formalin and Giemsa's dye (30 minutes), washed with double-distilled water and dried in a drying oven at 50° C. The plates are then assessed visually using an overhead microscope (Plaque Multiplier from Technomara). The following data can be acquired from the test plates: • CC50 (NHDF)=substance concentration in μM at which no visible cytostatic effects on the cells are evident by comparison with the untreated cell control; • EC50 (HCMV)=substance concentration in μM which inhibits the CPE (cytopathic effect) by 50% compared with the untreated virus control; • SI (selectivity index)=CC50 (NHDF)/EC50 (HCMV).

Structure (SMILES) | SI HCMV
Cc1cc(N2CCN(C3=Nc4ccccc4C(CC(=O)O)N3c3cccc(C(F)(F)F)c3)CC2)ccc1F (stereo not shown) [Example 1, {2-[4-(4-Fluoro-3-methylphenyl)-1-piperazinyl]-3-[3-(trifluoromethyl)phenyl]-3,4-dihydro-4-quinazolinyl}acetic acid] | 630
O=C(O)CC1c2ccccc2N=C(N2CCN(c3ccc(F)cc3)CC2)N1c1cc(C(F)(F)F)ccc1F (stereo not shown) [Example 2, {2-[4-(4-Fluorophenyl)-1-piperazinyl]-3-[2-fluoro-5-(trifluoromethyl)phenyl]-3,4-dihydro-4-quinazolinyl}acetic acid hydrochloride] | 650
Cc1cc(Cl)ccc1N1C(N2CCN(c3cccc(Cl)c3)CC2)=Nc2ccccc2C1CC(=O)O (stereo not shown) [Example 6, {2-[4-(3-Chlorophenyl)-1-piperazinyl]-3-[4-chloro-2-methylphenyl]-3,4-dihydro-4-quinazolinyl}acetic acid] | 63
O=C(O)CC1c2ccccc2N=C(N2CCN(c3cccc(Cl)c3)CC2)N1c1ccc(F)c(Cl)c1 (stereo not shown) [Example 19] | 60
COc1ccc(C(F)(F)F)cc1N1C(N2CCN(c3cccc(Cl)c3)CC2)=Nc2ccccc2C1CC(=O)O (stereo not shown) [Example 26, {2-[4-(3-Chlorophenyl)-1-piperazinyl]-3-[2-methoxy-5-(trifluoromethyl)phenyl]-3,4-dihydro-4-quinazolinyl)acetic acid] | 1650
COc1ccc(C(F)(F)F)cc1N1C(N2CCN(c3cccc(C)c3)CC2)=Nc2ccccc2C1CC(=O)O (stereo not shown) [Example 27, {2-[4-(3-Methylphenyl)-1-piperazinyl]-3-[2-methoxy-5-(trifluoromethyl)phenyl]-3,4-dihydro-4-quinazolinyl}acetic acid] | 1446
COc1cccc(N2CCN(C3=Nc4ccccc4C(CC(=O)O)N3c3cc(Cl)ccc3OC)CC2)c1 (stereo not shown) [Example 28, {2-[4-(3-Methoxyphenyl)-1-piperazinyl]-3-[2-methoxy-5-chlorophenyl]-3,4-dihydro-4-quinazolinyl]acetic acid] | 2520
COc1ccc(Cl)cc1N1C(N2CCN(c3ccc(F)cc3)CC2)=Nc2ccccc2C1CC(=O)O (stereo not shown) [Example 29, {2-[4-(4-Fluorophenyl)-1-piperazinyl]-3-[2-methoxy-5-chlorophenyl]-3,4-dihydro-4-quinazolinyl}acetic acid] | 1786
COc1ccc(C)cc1N1C(N2CCN(c3cccc(C)c3)CC2)=Nc2ccccc2C1CC(=O)O (stereo not shown) [Example 30, {2-[4-(3-Methylpheny)-1-piperazinyl]-3-[2-methoxy-5-methylphenyl]-3,4-dihydro-4-quinazolinyl}acetic acid] | 1000
COc1ccc(C)cc1N1C(N2CCN(c3cccc(Cl)c3)CC2)=Nc2ccccc2C1CC(=O)O (stereo not shown) [Example 31, {2-[4-(3-Chlorophenyl)-1-piperazinyl]-3-[2-methoxy-5-methylphenyl]-3,4-dihydro-4-quinazolinyl}acetic acid] | 450
